Molecular target: HV62 peptide (synthetic 62-residue polypeptide corresponding to residues 33-94 of human VAMP-2) (UniProt P63027)

Substance: recombinant wild-type TeTx L chain (freed from MBP with factor Xa)
- initial rate of substrate cleavage at 37° C. with 100 nM L chain: 21.6 pmol/min

— patent publication US7628992
